ChEMBL document CHEMBL5390309, “Characterization of 2,4-Dianilinopyrimidines Against Five P. falciparum Kinases PfARK1, PfARK3, PfNEK3, PfPK9, and PfPKB” (2023)

How the values were obtained:
[1] = Inhibition of Plasmodium falciparum NEK3 incubated for 2 hrs by luciferin-reagent based luminometer analysis
[2] = Inhibition of Plasmodium falciparum PKB incubated for 2 hrs by luciferin-reagent based luminometer analysis
[3] = Inhibition of Plasmodium falciparum ARK1 incubated for 2 hrs by luciferin-reagent based luminometer analysis
[4] = Inhibition of Plasmodium falciparum PK9 incubated for 2 hrs by luciferin-reagent based luminometer analysis
[5] = Inhibition of Plasmodium falciparum ARK3 incubated for 2 hrs by luciferin-reagent based luminometer analysis
Plasmodium falciparum = experiment: Antimalarial activity against blood stage Plasmodium falciparum 3D7 assessed as reduction in parasite viability incubated for 72 hrs by SYBR green dye based fluorescence assay
[6] = Binding affinity to Plasmodium falciparum PK9 assessed as dissociation constant
[7] = Inhibition of Plasmodium falciparum PKB

| Compound | IC50 [1] [nM] | IC50 [2] [nM] | IC50 [3] [nM] | IC50 [4] [nM] | IC50 [5] [nM] | EC50 (Plasmodium falciparum) [nM] | Kd [6] [nM] | IC50 [7] [nM] |
| --- | --- | --- | --- | --- | --- | --- | --- | --- |
| COc1cc(N2CCOCC2)ccc1Nc1ncc(C)c(Nc2ccccc2NS(C)(=O)=O)n1 | 2300 | 160 |  |  |  |  |  |  |
| CCOc1cc(N2CCOCC2)ccc1Nc1ncc(Cl)c(Nc2ccccc2NS(C)(=O)=O)n1 | 2000 | 750 | 12000 | 11000 | 49000 |  |  |  |
| CCS(=O)(=O)Nc1ccccc1Nc1nc(Nc2ccc(N3CCOCC3)cc2OC)ncc1Cl | 840 | 180 |  | 640 | 460 |  |  |  |
| COc1cc(N2CCOCC2)ccc1Nc1ncc(Br)c(Nc2ccccc2NS(C)(=O)=O)n1 | 440 | 42 |  | 290 | 1000 | 690 |  |  |
| COc1cc(N2CCOCC2)ccc1Nc1ncc(C(F)(F)F)c(Nc2ccccc2NS(C)(=O)=O)n1 | 510 | 13 | 1200 | 75 | 1400 | 380 |  |  |
| CS(=O)(=O)Nc1ccccc1Nc1nc(Nc2ccc(N3CCOCC3)cc2F)ncc1Cl | 420 | 51 | 1900 | 350 | 8000 |  |  |  |
| COc1cc(N2CCOCC2)ccc1Nc1ncc(C(N)=O)c(Nc2ccccc2NS(C)(=O)=O)n1 | 2500 | 310 | 1100 | 210 |  |  |  |  |
| CCc1cnc(Nc2ccc(N3CCOCC3)cc2OC)nc1Nc1ccccc1NS(C)(=O)=O | 600 | 170 |  |  |  |  |  |  |
| COc1cc(N2CCOCC2)ccc1Nc1ncc(Cl)c(Nc2ccccc2NS(=O)(=O)c2cn(C)cn2)n1 | 1400 | 2100 |  |  |  |  |  |  |
| COc1cc(N2CCOCC2)ccc1Nc1ncc(N(C)C)c(Nc2ccccc2NS(C)(=O)=O)n1 | 1800 | 240 |  |  |  |  |  |  |
| COc1cc(N2CCOCC2)ccc1Nc1ncc(C(F)(F)F)c(Nc2ccccc2N)n1 |  | 1100 |  |  |  |  |  |  |
| CCCn1/c(=N/C(=O)c2cccc(C(N)=O)c2)[nH]c2ccccc21 |  |  |  |  |  |  | 450 |  |
| COc1cc(N2CCOCC2)ccc1Nc1ncc(Cl)c(Nc2ccccc2NC(C)=O)n1 |  | 2100 |  |  |  |  |  |  |
| COc1cc(N2CCOCC2)ccc1Nc1ncc(C2CC2)c(Nc2ccccc2NS(C)(=O)=O)n1 |  | 240 |  |  |  | 1200 |  |  |
| CS(=O)(=O)Nc1ccccc1Nc1nc(Nc2ccc(N3CCOCC3)cc2O)ncc1Cl | 220 | 430 | 3100 | 1200 | 11000 |  |  |  |
| CS(=O)(=O)Nc1ccccc1Nc1nc(Nc2ccc(N3CCOCC3)c(C(F)(F)F)c2)ncc1Cl | 49 | 54 | 540 | 110 | 8000 |  |  |  |
| COc1cc(N2CCOCC2)ccc1Nc1ncc(Cl)c(Nc2ccccc2NS(=O)(=O)C2CC2)n1 | 360 | 120 | 1300 | 450 | 440 |  |  |  |
| CS(=O)(=O)Nc1ccccc1Nc1nc(Nc2ccc(N3CCOCC3)cc2Cl)ncc1Cl | 550 | 37 | 2700 | 590 | 7000 |  |  |  |

| Compound | IC50 [1] [nM] | IC50 [2] [nM] | IC50 [3] [nM] | IC50 [4] [nM] | IC50 [5] [nM] | EC50 (Plasmodium falciparum) [nM] | Kd [6] [nM] | IC50 [7] [nM] |
| --- | --- | --- | --- | --- | --- | --- | --- | --- |
| COc1cc(N2CCOCC2)ccc1Nc1ncc(I)c(Nc2ccccc2NS(C)(=O)=O)n1 | 410 | 50 |  | 72 | 1200 | 540 |  |  |
| COc1cc(N2CCOCC2)ccc1Nc1ncc(Cl)c(Nc2ccccc2NC(N)=O)n1 |  | 79 |  | 100 |  |  |  |  |
| Cc1cc(N2CCOCC2)ccc1Nc1ncc(Cl)c(Nc2ccccc2NS(C)(=O)=O)n1 | 290 | 120 | 2000 | 460 | 7000 |  |  |  |
| COc1cc(N2CCOCC2)ccc1Nc1ncc(C#N)c(Nc2ccccc2NS(C)(=O)=O)n1 | 140 | 180 |  |  |  | 430 |  |  |
| COc1cc(N2CCOCC2)ccc1Nc1ncc(F)c(Nc2ccccc2NS(C)(=O)=O)n1 |  | 1500 |  |  |  |  |  |  |
| COc1cc(N2CCOCC2)ccc1Nc1ncc(Cl)c(Nc2ccccc2NS(C)(=O)=O)n1 | 1000 | 70 | 3400 | 1200 | 1800 | 340 |  |  |
| COc1ccc2c(c1)c(C1=C(c3c[nH]c4ccccc34)C(=O)NC1=O)cn2CCCN(C)C |  |  |  |  |  |  |  | 1000 |
| Cc1cc(Nc2ncc(Cl)c(Nc3ccccc3NS(C)(=O)=O)n2)ccc1N1CCOCC1 | 57 | 15 | 180 | 30 | 7000 | 350 |  |  |
| COc1cc(N2CCOCC2)ccc1Nc1ncc(Cl)c(Nc2ccccc2NS(=O)(=O)CC(C)C)n1 | 3900 |  |  |  | 1100 |  |  |  |
| COc1cc(N2CCOCC2)ccc1Nc1ncc(-c2cnn(C)c2)c(Nc2ccccc2NS(C)(=O)=O)n1 | 1200 |  |  |  |  |  |  |  |
| COc1cc(Nc2ncc(Cl)c(Nc3ccccc3NS(C)(=O)=O)n2)ccc1N1CCOCC1 | 60 | 14 | 240 | 40 | 6000 | 160 |  |  |
| Cc1n[nH]c2ccc(-c3cncc(OC[C@@H](N)Cc4c[nH]c5ccccc45)c3)cc12 |  |  |  |  |  |  |  | 200 |
| CS(=O)(=O)Nc1ccccc1Nc1nc(Nc2ccc(N3CCOCC3)c(Cl)c2)ncc1Cl | 120 | 17 | 340 | 56 | 14000 | 430 |  |  |
| COc1cc(N2CCOCC2)ccc1Nc1ncc(Cl)c(Nc2ccccc2NS(=O)(=O)NC(C)C)n1 |  | 5000 | 5100 |  | 1400 |  |  |  |
| COc1cc(N2CCOCC2)ccc1Nc1ncc(OC)c(Nc2ccccc2NS(C)(=O)=O)n1 | 900 | 700 |  |  |  |  |  |  |
| COc1cc(N2CCOCC2)ccc1Nc1ncc(Cl)c(Nc2ccccc2NS(=O)(=O)c2ccccc2)n1 | 1400 | 1700 | 4000 |  | 330 |  |  |  |
| CS(=O)(=O)Nc1ccccc1Nc1nc(Nc2ccc(N3CCOCC3)cc2)ncc1Cl | 110 | 21 | 380 | 44 | 2000 | 430 |  |  |
